Assay: general procedure: Fmoc solid-phase peptide synthesis; Fmoc-NH-SAL resin
Conditions: whole synthesis, scale 1 mmole, one disulfide bridge, sequence written open

Substance “H-Arg-Arg-Nal-Cys-Tyr-Arg-Lys-DCit-Pro-Tyr-Arg-Cit-Cys-Arg-NH2” has an isolated mass of 1.432 g and an isolated yield of 59%.
